Pooled drug test results. Numbers come from NIAID ChemDB, via PubChem.

All rows: tests in culture; species: Mycobacterium tuberculosis

A number after MIC or MFC names an inhibition level or a share of isolates. Rows are shuffled and stem from different studies. An empty or dashed field is not shown. ECn is the concentration giving n% inhibition of infection, replication or growth. MIC bound comes from a single tested concentration. Inhibition is in % at the dose shown (toxicity tests: loss of growth or viability). Two numbers with a dash give a range or band.

SMILES | cell line | strain or isolate | read by | dose | read-out | value
CC(=O)N1CCN(C(C)=O)C1=S | - | H37Rv | BACTEC | 12.5 µg/mL | inhibition | 0%
Clc1ccc(C2Cc3nc4ccc(Cl)cc4c(-c4ccccc4)c3S2)c(Cl)c1 | - | H37Rv | agar | - | MIC | 0.9 µM
O=C(Nc1cccc(N2CCSCC2)c1)c1ccc(Cl)cc1 | - | 103471 | - | - | MIC | 8 µg/mL
CCC(=O)SCC1CS1 | - | H37Rv | - | - | MIC | 1.56 µg/mL
Clc1ccc(CNc2cccc(N3CCSCC3)c2)cc1 | - | 103471 | - | - | MIC | 8 µg/mL
O=C1C=C(Sc2ccccc2)c2nccc3c2c1nc1ccccc13 | - | H37Rv | - | - | MIC | 18.4 µM
CC1(C)CC(=O)C2=C(C1)OC1=C(C(=O)CC(C)(C)C1)[Se]2=O | - | H37Rv | - | - | MIC | 55.46 µg/mL
c1coc(C2=Nc3cccc4cccc(c34)N2)c1 | - | H37Rv | BACTEC | 12.5 µg/mL | inhibition | -6%
CO[C@H]1/C=C/O[C@@]2(C)Oc3c(C)c(O)c4c(O)c(c5c(c4c3C2=O)NC2(CCN(CC(C)C)CC2)N=5)=NC(=O)/C(C)=C\C=C\[C@H](C)[C@H](O)[C@@H](C)[C@@H](O)[C@@H](C)[C@H](OC(C)=O)[C@@H]1C | - | 1620-6 (RIF-S) | - | - | MBC | 0.125 µg/mL
N/C(=N\N=C\c1ccccc1Br)c1ccncc1 | - | 1054 | - | - | MIC | 8 µg/mL
C[C@]1(COc2ccc(-n3cc(COc4cccc(Cl)c4)nn3)cc2)Cn2cc([N+](=O)[O-])nc2O1 | - | H37Rv | broth dilution / resazurin | - | MIC | 0.52 µM
N/C(=N\N=C\c1ccc(Cl)c(Cl)c1)c1ccncc1 | - | H37Rv | - | - | MIC | 256 µg/mL
C=C(C)C(=O)Nc1ccc(-n2[nH]c(C)c(N=Nc3ccc(N(C)C)cc3)c2=O)cc1 | - | H37Rv | BACTEC | - | MIC bound | >12.8 µg/mL
Clc1ccccc1C1Cc2nc3ccccc3c(-c3ccccc3)c2S1 | - | H37Rv | agar | - | MIC | 8.39 µM
O=C(CCC(=O)Nc1ccccc1)Nc1ccccc1 | - | - | - | - | MIC | 500 µM
Cc1ccc(S(=O)(=O)Nc2ccccc2-c2nc3ccc(C)cc3c(=O)o2)cc1 | - | H37Rv | BACTEC | - | MIC bound | >12.5 µg/mL
O=[N+]([O-])c1cccc(C2Cc3nc4ccc(Cl)cc4c(-c4ccccc4)c3S2)c1 | - | MDR | agar | - | MIC | 0.95 µM
CN1CCOP(=O)(Oc2ccccc2)N1 | - | H37Rv | BACTEC | 128 µg/mL | inhibition | 95%
CC1CN(c2c(F)cc3c(=O)c(C(=O)O)cn(C4CC4)c3c2O)CCN1.O=S1CCCC1.[Cl][Rh]([Cl])[Cl] | - | ATCC 27294 | - | - | MIC | 0.68 µg/mL
Clc1ccc2nc3c(c(-c4ccccc4)c2c1)SC(c1cccc2ccccc12)C3 | - | H37Rv | agar | - | MIC | 29.48 µM
CO[C@H]1/C=C/O[C@@]2(C)Oc3c(C)c(O)c4c(O)c(c5c(c4c3C2=O)NC2(CCN(CC(C)C)CC2)N=5)=NC(=O)/C(C)=C\C=C\[C@H](C)[C@H](O)[C@@H](C)[C@@H](O)[C@@H](C)[C@H](OC(C)=O)[C@@H]1C | - | S-6M (susceptible) | - | - | MIC | 0.05 µg/mL
Cc1ccc(NC(=O)CCC(=O)Nc2ccc(C)c(C)c2)cc1C | - | - | - | - | MIC | 500 µM
N/C(=N\N=C\c1ccc(Cl)c([N+](=O)[O-])c1)c1ccncc1 | - | H37Rv | - | - | MIC | >256 µg/mL
C[C@]1(COc2ccc(-n3cc(COc4ccc(C(F)(F)F)cc4)nn3)cc2)Cn2cc([N+](=O)[O-])nc2O1 | - | ss18b non-replicating phase | broth dilution / resazurin | - | MIC | 7.76 µM
CSCCC(=O)OCC(S)CS | - | H37Rv | - | - | MIC | 25 µg/mL
N/C(=N\N=C\c1ccc(Cl)cc1)c1ccncc1 | - | 1342 | - | - | MIC | 32 µg/mL
COC(=O)C1C(O)C(C)C(OC(C)=O)C(C)/C=C\C=C(/C)C(=O)Nc2c(C)c(OC(C)=O)c3c(c2O)C(=O)C(C)=C2OCOC(=C23)/C(C)=C/C(C)(O)C(O)C(C)C1O | - | H37Rv | BACTEC | - | MIC | ≥12.5 µg/mL
O=C(NCC(=O)SCC1CS1)OCc1ccccc1 | - | H37Rv | - | - | MIC | 25 µg/mL
Cc1ccc(-c2cc(-c3ccc(Cl)cc3)nc(/N=C3\C(=O)N(CN4CCCCC4)c4ccc(Cl)cc43)n2)cc1 | - | H37Rv | BACTEC | - | EC50 | <6.25 µg/mL
COc1ccc(NC(=S)Nc2c(C)n(C)n(-c3ccccc3)c2=O)cc1 | - | H37Rv | resazurin | 6.25 µg/mL | inhibition | -7%
O=C(Cc1ccc(Cl)cc1)SCC1CS1 | - | H37Rv | - | - | MIC | 25 µg/mL
CC(C)=NNC(=O)CNc1ccc(Cl)c(C(F)(F)F)c1 | - | H37Rv | BACTEC | 12.5 µg/mL | inhibition | 18%
C[C@]1(COc2ccc(-c3cc(-c4cccc(C(F)(F)F)c4)on3)cc2)Cn2cc([N+](=O)[O-])nc2O1 | - | H37Rv | broth dilution / resazurin | - | MIC | 0.25 µM
Nc1ncc(F)c2c1ncn2[C@@H]1O[C@H](CO)[C@@H](O)[C@H]1O | - | SRICK1 | - | - | MIC | >100 µg/mL
Cc1ccc(C2Cc3nc4ccc(Cl)cc4c(-c4ccccc4)c3S2)cc1 | - | H37Rv | agar | - | MIC | 8.07 µM
CC[C@H]1OC(=O)[C@H](C)[C@@H](O[C@H]2C[C@@](C)(OC)[C@@H](O)[C@H](C)O2)[C@H](C)[C@@H](O[C@@H]2O[C@H](C)C[C@H](N(C)C)[C@H]2O)[C@](C)(OC)C[C@@H](C)C(=O)[C@H](C)[C@@H](O)[C@]1(C)O | - | MDR-22 (MDR) | - | - | MIC | >8 µg/mL
CN(C)C/C=C(\c1ccc(N)cc1)c1ccc(-c2ccc(Br)cc2)cc1 | - | H37Rv | - | - | MIC | 9.8 µg/mL
CC12CCC(C3=C(C1=O)[Se](=O)C1=C(O3)C3CCC(C)(C1=O)C3(C)C)C2(C)C | - | H37Rv | - | - | MIC | 16.99 µg/mL
Cc1ccc(NCC(=O)NN)cc1C | - | H37Rv | BACTEC | 12.5 µg/mL | inhibition | 4%
O=[N+]([O-])c1ccc(N=NNc2ccc([N+](=O)[O-])cc2Cl)c(Cl)c1 | - | H37Ra-lux | luminescence | - | EC50 | 1.27 µM
Cc1ccc(-c2cc(-c3ccc(Cl)cc3)nc(/N=C3\C(=O)N(CN(C)C)c4ccc(Cl)cc43)n2)cc1 | - | H37Rv | BACTEC | - | EC50 | <6.25 µg/mL
C[C@H]1O[C@@H](O[C@H]2[C@@H](O)C[C@H](O[C@H]3[C@@H](O)C[C@H](O[C@H]4CC[C@@]5(C)[C@H](CC[C@@H]6[C@@H]5CC[C@]5(C)[C@@H](C7=CC(=O)OC7)CC[C@]65O)C4)O[C@@H]3C)O[C@@H]2C)C[C@H](O)[C@@H]1O | - | H37Rv | BACTEC | - | MIC | ≥128 µg/mL
CN(C)C/C=C(\c1ccc(I)cc1)c1ccc(-c2ccc(Br)cc2)cc1 | - | ALI 258 | - | - | MIC | ≤4 µg/mL
O=C(N=Nc1c(O)n(Cc2ccccc2)c2ccccc12)c1ccncc1 | - | BOVIN | - | - | MIC | 3.5 µg/mL
CN1C(=O)CC(NC(=O)CNC(=O)c2ccccc2)C1=O | - | H37Rv | BACTEC | 12.8 µg/mL | inhibition | 13%
CCCCCC[C@]1(C)Cn2cc([N+](=O)[O-])nc2O1 | - | H37Rv | visual reading / absorbance | - | MIC100 | 0.015 µg/mL
NC(=O)c1ccncc1 | - | CF74 | resazurin | - | MIC | >25 µg/mL
CC(C)=CCN1CC(C)C(=O)Nc2ccccc21 | - | H37Rv | BACTEC | - | MIC bound | >12.5 µg/mL
CCC(C)c1ccc(NC(=O)CCC(=O)Nc2ccc(C(C)CC)cc2)cc1 | - | - | - | - | MIC | 500 µM
Cc1ccc(-c2cc(-c3ccc(Cl)cc3)nc(/N=C3\C(=O)N(CN4CCOCC4)c4ccccc43)n2)cc1 | - | H37Rv | BACTEC | 6.25 µg/mL | inhibition | 86%
C[C@]1(COc2ccc(-c3cc(COc4cccc(F)c4)on3)cc2)Cn2cc([N+](=O)[O-])nc2O1 | - | H37Rv | broth dilution / resazurin | - | MIC | 0.26 µM
CN(C)CC=C(c1ccccc1)c1ccc(-c2ccc(Br)cc2)cc1 | - | ALI 282 | - | - | MIC | ≤5 µg/mL
Cc1ccc(-c2cc(-c3ccc(Cl)cc3)nc(/N=C3\C(=O)Nc4ccc(Cl)cc43)n2)cc1 | - | H37Rv | BACTEC | 6.25 µg/mL | inhibition | 90%
CN1CCN(c2ccccc2NCc2ccc(Cl)cc2)CC1 | - | 103471 | - | - | MIC | >16 µg/mL
COc1cc(O)c2c(c1)[C@H](O)C(O)CC1OC1C(=O)/C=C\CC(C)OC2=O | - | H37Rv | BACTEC | - | MIC | ≥12.5 µg/mL
Cc1ccc(SC2=CC(=O)c3nc4ccccc4c(C)c3C2=O)cc1 | - | H37Rv | - | - | MIC | 9 µM
C[C@]1(COc2ccc(-n3cc(COc4ccc(OC(F)(F)F)cc4)nn3)cc2)Cn2cc([N+](=O)[O-])nc2O1 | - | H37Rv | visual reading / absorbance | - | MIC100 | 0.12 µg/mL
Clc1ccc(C2Cc3nc4ccccc4c(-c4ccccc4)c3S2)cc1 | - | H37Rv | agar | - | MIC | 16.72 µM
Nc1nccc2c1ncn2[C@@H]1O[C@H](CO)[C@@H](O)[C@H]1O | - | H37Ra | - | - | MIC | >100 µg/mL
CC(=O)NC1Cn2c3c(c(COC(N)=O)c2C1O)C(=O)C(Nc1ccccc1)=C(C)C3=O | - | H37Rv | BACTEC | 0.5 µM | inhibition | 0%
Cc1ccc(/C=N/N=C(\N)c2ccncc2)cc1 | - | H37Rv | - | - | MIC | 8 µg/mL
CCOC(=O)CCSC1=CC(=O)c2nc3ccccc3c(C)c2C1=O | - | H37Rv | - | - | MIC | 17.6 µM
O=C(SCC1CS1)c1ccc(N=Nc2ccccc2)cc1 | - | H37Rv | - | - | MIC | 3.125 µg/mL
C[C@]1(COc2ccc(-c3cc(-c4ccccc4C(F)(F)F)on3)cc2)Cn2cc([N+](=O)[O-])nc2O1 | - | ss18b non-replicating phase | broth dilution / resazurin | - | MIC | >32 µM
N/C(=N\N=C\c1ccc(Br)cc1)c1ccncc1 | - | H37Rv | - | - | MIC | 16 µg/mL
CC(S)C1CS1 | - | H37Rv | - | - | MIC | 12.5–25 µg/mL
NC1=CC(=O)c2nc3ccccc3c3ccnc1c23 | - | H37Rv | - | - | MIC | 3.2 µM
Nc1ccc2nc3ccc(=O)cc-3n(-c3ccccc3)c2c1 | VERO | H37Rv | BACTEC | - | MIC | 6.25 µg/mL
O=C1c2scnc2-c2nccc3c2c1nc1ccccc13 | - | H37Rv | - | - | MIC | 10.7 µM
CN1CCCNCCN(CCc2ccccn2)CCCN(C)CC1 | - | H37Rv | resazurin | 6.25 µg/mL | inhibition | 1%
CC(C)c1ccc(OCc2cc(-c3ccc(OC[C@@]4(C)Cn5cc([N+](=O)[O-])nc5O4)cc3)no2)cc1 | - | ss18b non-replicating phase | broth dilution / resazurin | - | MIC | 2.04 µM
O=C(CCC(=O)Nc1ccc(Cl)c(Cl)c1)Nc1ccc(Cl)c(Cl)c1 | - | - | - | - | MIC | 250 µM
C[C@]1(COc2ccc(-c3cc(-c4ccc(F)cc4)on3)cc2)Cn2cc([N+](=O)[O-])nc2O1 | - | H37Rv | broth dilution / resazurin | - | MIC | 2.29 µM
O=C(CN1CCN(c2ccccc2)CC1)N1CCc2c([nH]c3ccccc23)C1c1cccnc1 | - | H37Rv | resazurin | 6.25 µg/mL | inhibition | 14%
Cc1ccc(S(=O)(=O)NCCNC2=CC(=O)c3nc4ccccc4c4ccnc2c34)cc1 | - | H37Rv | - | - | MIC | 3.5 µM
O=C(C/C=C/c1ccccc1)Nc1ccc(N2CCSCC2)cc1 | - | 103471 | - | - | MIC | >16 µg/mL
CN(C)CC=C(c1ccc(Br)cc1)c1ccc(-c2ccc(Br)cc2)cc1 | - | H37Ra | - | - | MIC | 34 µg/mL
CC[N+]12CC=C3COC(=O)C(C)(O)C(C)(O)C(C)C(=O)OC(CC1)C32.[Br-] | - | H37Rv | BACTEC | - | MIC | ≥12.5 µg/mL
Nc1nc(F)cc2c1ncn2[C@@H]1O[C@H](CO)[C@@H](O)[C@H]1O | - | SRICK1::ADOK | - | - | MIC | 1–10 µg/mL
CN(C)C/C=C(/c1ccc(Br)cc1)c1ccc(-c2ccc(Br)cc2)cc1 | - | ALI 3342 | - | - | MIC | 8.5 µg/mL
O=C(Cc1cccc2ccccc12)N/N=C/c1ccc(Cl)cc1Cl | - | H37Rv | BACTEC | 12.5 µg/mL | inhibition | 2%
N#Cc1ccc(/C=N/N=C(\N)c2ccncc2)cc1 | - | H37Rv | - | - | MIC | 256 µg/mL
CN(C)C/C=C(/c1ccccc1)c1ccc(-c2ccc(Br)cc2)cc1 | - | ALI 552 | - | - | MIC | 20 µg/mL
CCCn1c(O)c(N=NC(=O)c2ccncc2)c2ccccc21 | - | Human sensitive isolate | - | - | MIC | 3.1 µg/mL
COC(=O)c1cc(-c2ccc(OC)cc2)c2c(=O)n(-c3ccccc3)[nH]c2n1 | - | H37Rv | BACTEC | - | MIC | ≥12.5 µg/mL
Cc1ccc(OCc2cn(-c3ccc(OC[C@@]4(C)Cn5cc([N+](=O)[O-])nc5O4)cc3)nn2)cc1 | - | H37Rv | broth dilution / resazurin | - | MIC | 0.54 µM

Repeating the first 5 entries:

| SMILES | cell line | strain or isolate | read by | dose | read-out | value |
|---|---|---|---|---|---|---|
| CC(=O)N1CCN(C(C)=O)C1=S | - | H37Rv | BACTEC | 12.5 µg/mL | inhibition | 0% |
| Clc1ccc(C2Cc3nc4ccc(Cl)cc4c(-c4ccccc4)c3S2)c(Cl)c1 | - | H37Rv | agar | - | MIC | 0.9 µM |
| O=C(Nc1cccc(N2CCSCC2)c1)c1ccc(Cl)cc1 | - | 103471 | - | - | MIC | 8 µg/mL |
| CCC(=O)SCC1CS1 | - | H37Rv | - | - | MIC | 1.56 µg/mL |
| Clc1ccc(CNc2cccc(N3CCSCC3)c2)cc1 | - | 103471 | - | - | MIC | 8 µg/mL |